Measurements published in ChEMBL document CHEMBL4118135, “Optimized allosteric inhibition of engineered protein tyrosine phosphatases with an expanded palette of biarsenical small molecules” (Bioorg Med Chem, 2018).

Legend:
[1] = target: T1, Tyrosine-protein phosphatase non-receptor type 7 (Homo sapiens) (UniProt P35236); experiment: Inhibition of His6-tagged wild type human HePTP catalytic domain overexpressed in Escherichia coli BL21(DE3) cells at 25 uM using pNPP as substrate incubated for 90 mins by quenched phosphatase activity assay
T1 sequence (whole entry): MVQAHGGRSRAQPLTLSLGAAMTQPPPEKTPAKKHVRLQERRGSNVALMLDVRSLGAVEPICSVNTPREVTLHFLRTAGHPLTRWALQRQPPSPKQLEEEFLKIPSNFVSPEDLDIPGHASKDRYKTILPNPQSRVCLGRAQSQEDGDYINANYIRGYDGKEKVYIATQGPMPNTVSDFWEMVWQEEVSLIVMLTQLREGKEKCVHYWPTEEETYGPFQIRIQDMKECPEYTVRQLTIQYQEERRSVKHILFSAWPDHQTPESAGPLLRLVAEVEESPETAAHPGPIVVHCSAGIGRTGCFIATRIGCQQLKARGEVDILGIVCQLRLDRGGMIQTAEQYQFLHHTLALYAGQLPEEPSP

[2] = tested on: T2, Tyrosine-protein phosphatase non-receptor type 7 (Homo sapiens), P35236 [P171C,V205C]; experiment: Binding affinity to allosterically sensitized mutant form of His6-tagged human HePTP catalytic domain overexpressed in Escherichia coli BL21(DE3) cells at 25 uM after 90 mins by SDS-PAGE analysis
T2 sequence (whole entry): T1 sequence (whole entry) with P171C, V205C

[3] = target: T1, Tyrosine-protein phosphatase non-receptor type 7 (Homo sapiens); experiment: Binding affinity to His6-tagged human wild-type HePTP catalytic domain overexpressed in Escherichia coli BL21(DE3) cells at 25 uM after 90 mins by SDS-PAGE analysis
[4] = tested on: Tyrosine-protein phosphatase non-receptor type 7 (Homo sapiens), P35236 [UNDEFINED MUTATION]; experiment: Inhibition of Inhibition of allosterically sensitized mutant form of His6-tagged […] human HePTP catalytic domain overexpressed in Escherichia coli BL21(DE3) cells at 25 uM using pNPP as substrate incubated for 90 mins by quenched phosphatase activity assay

Structure (SMILES): O=C(O)c1c(Cl)c(Cl)c(Cl)c(Cl)c1-c1c2ccc(=O)c([As]3SCCS3)c-2oc2c([As]3SCCS3)c(O)ccc12
- inhibition [1]: inactive
- Activity [2]: Active
- Activity [3]: inactive
- inhibition [4]: 60%

Residue numbers refer to the chain shown, from its start. Active and inactive are the calls of the source. The calls are words filed in the database; no cut-off is given here.
